According to US20220089698A1, “ANTIBODIES THAT TARGET HIV GP120 AND METHODS OF USE” (published 2022):
Where “and” joins values, the source holds several entries; their conditions need not be identical. Equal values may be shown once. Read-outs that look alike come from different tables or passages of the source.

How the values were obtained:
Assay in all cases: cell-based or functional assay
[1] = target: HIV-1 envelope glycoprotein (gp120) of virus 7141 (HIV-1)
[2] = target: HIV-1 envelope glycoprotein (gp120) of virus 8318 (HIV-1)
[3] = target: HIV-1 envelope glycoprotein (gp120) of virus 92HT593 (HIV-1)
[4] = target: HIV-1 envelope glycoprotein (gp120) of virus RHPA (HIV-1)
[5] = target: HIV-1 envelope glycoprotein (gp120) of virus 7051 (HIV-1)
[6] = target: HIV-1 envelope glycoprotein (gp120) of virus 8320 (HIV-1)
[7] = target: HIV-1 envelope glycoprotein (gp120) of virus 7576 (HIV-1)
[8] = target: HIV-1 envelope glycoprotein (gp120) of virus 7015 (HIV-1)
[9] = target: HIV-1 envelope glycoprotein (gp120) of virus 92US657 (HIV-1)
[10] = target: HIV-1 envelope glycoprotein (gp120) of virus CH106 (HIV-1)
[11] = target: HIV-1 envelope glycoprotein (gp120) of virus 1413 (HIV-1)
[12] = target: HIV-1 envelope glycoprotein (gp120) of virus 7595 (HIV-1)
[13] = target: HIV-1 envelope glycoprotein (gp120) of virus CH040 (HIV-1)
[14] = target: HIV-1 envelope glycoprotein (gp120) of virus THRO (HIV-1)
[15] = target: HIV-1 envelope glycoprotein (gp120) of virus 7552 (HIV-1)
[16] = target: HIV-1 envelope glycoprotein (gp120) of virus 8339 (HIV-1)
[17] = target: HIV-1 envelope glycoprotein (gp120) of virus 7007 (HIV-1)
[18] = target: HIV-1 envelope glycoprotein (gp120) of virus 8398 (HIV-1)
[19] = target: HIV-1 envelope glycoprotein (gp120) of virus 92US727 (HIV-1)
[20] = target: HIV-1 envelope glycoprotein (gp120) of virus 7141 (HIV-1); remark: listed apart in the source
[21] = target: HIV-1 envelope glycoprotein (gp120) of virus VS001 (HIV-1)
[22] = target: HIV-1 envelope glycoprotein (gp120) of virus 92US712 (HIV-1)
[23] = target: HIV-1 envelope glycoprotein (gp120) of virus 92US727 (HIV-1); remark: listed apart in the source
[24] = target: HIV-1 envelope glycoprotein (gp120) of virus 92US712 (HIV-1); remark: listed apart in the source

| Binder | Neutralization IC50 [1] [mg/L] | Neutralization IC50 [2] [mg/L] | Neutralization IC50 [3] [mg/L] | Neutralization IC50 [4] [mg/L] | Neutralization IC50 [5] [mg/L] | Neutralization IC50 [6] [mg/L] | Neutralization IC50 [7] [mg/L] | Neutralization IC50 [8] [mg/L] | Neutralization IC50 [9] [mg/L] | Neutralization IC50 [10] [mg/L] | Neutralization IC50 [11] [mg/L] | Neutralization IC50 [12] [mg/L] | Neutralization IC50 [13] [mg/L] | Neutralization IC50 [14] [mg/L] | Neutralization IC50 [15] [mg/L] | Neutralization IC50 [16] [mg/L] | Neutralization IC50 [17] [mg/L] | Neutralization IC50 [18] [mg/L] | Neutralization IC50 [19] [mg/L] | Neutralization IC50 [20] | other results |
| --- | --- | --- | --- | --- | --- | --- | --- | --- | --- | --- | --- | --- | --- | --- | --- | --- | --- | --- | --- | --- | --- |
| 1.1.111-1 (antibody, human IgG1, kappa) heavy: QVQLLQSGAAVTKPGASVRVSCEASGYNIRDYFIHWWRQAPGQGLQWVGWINPKTGQPNNPRQFQGRVSLTRHASWDFDTFSFYMDLKALRSDDTAVYFCARQRSDYWDFDVWGSGTQVTVSSASTKGPSVFPLAPSSKSTSGGTAALGCLVKDYFPEPVTVSWNSGALTSGVHTFPAVLQSSGLYSLSSVVTVPSSSLGTQTYICNVNHKPSNTKVDKKVEPKSCDKTHTCPPCPAPELLAGPDVFLFPPKPKDTLMISRTPEVTCVVVDVSHEDPEVKFNWYVDGVEVHNAKTKPREEQYNSTYRVVSVLTVLHQDWLNGKEYKCKVSNKALPLPEEKTISKAKGQPREPQVYTLPPSREEMTKNQVSLTCLVKGFYPSDIAVEWESNGQPENNYKTTPPVLDSDGSFFLYSKLTVDKSRWQQGNVFSCSVLHEALHSHYTQKSLSLSPGK light: not shown | 29.8 | 0.48 | 0.29 | 0.08 | 0.32 | 0.3 | 0.26 | 0.48 | 0.4 | 0.86 | 2.33 | 1.31 | 3.71 | 8.58 | > 50 | > 50 | > 50 | > 50 | > 50 | > 50 mg/L | Neutralization IC50 [21]: 3.24 mg/L; Neutralization IC50 [22]: 0.13 mg/L; Neutralization IC50 [23]: > 50 mg/L |
| 1.1.113-1 (antibody, human IgG1, kappa) heavy: QVQLLQSGAAVTKPGASVRVSCEASGYNIRDYFIHWWRQAPGQGLQWVGWINPKTGQPNNPRQFQGRVSLTRHASWDFDTFSFYMDLKALRSDDTAVYFCARQRSDYWDFDVWGSGTQVTVSSASTKGPSVFPLAPSSKSTSGGTAALGCLVKDYFPEPVTVSWNSGALTSGVHTFPAVLQSSGLYSLSSVVTVPSSSLGTQTYICNVNHKPSNTKVDKKVEPKSCDKTHTCPPCPAPELLAGPDVFLFPPKPKDTLMISRTPEVTCVVVDVSHEDPEVKFNWYVDGVEVHNAKTKPREEQYNSTYRVVSVLTVLHQDWLNGKEYKCKVSNKALPLPEEKTISKAKGQPREPQVYTLPPSREEMTKNQVSLTCLVKGFYPSDIAVEWESNGQPENNYKTTPPVLDSDGSFFLYSKLTVDKSRWQQGNVFSCSVLHEALHSHYTQKSLSLSPGK light: not shown | 27.9 | 0.14 | 0.24 | 0.05 | 0.41 | 0.28 | 0.28 | 0.44 | 0.4 | 0.59 | 3.67 | 1.78 | 0.15 | 9.39 | > 50 | > 50 | > 50 | > 50 | > 50 | – | – |
| 2.1.3-1 (antibody, human IgG1, kappa) heavy: QVHLSQSGAAVTKPGASVRVSCEASGYKISDHFIHWWRQAPGQGLQWVGWINPKTGQPNNPRQFQGRVSLTRQASWDFDTYSFYMDLKAVRSDDTAIYFCARQRSDFWDFDVWGSGTQVTVSSASTKGPSVFPLAPSSKSTSGGTAALGCLVKDYFPEPVTVSWNSGALTSGVHTFPAVLQSSGLYSLSSVVTVPSSSLGTQTYICNVNHKPSNTKVDKKVEPKSCDKTHTCPPCPAPELLAGPDVFLFPPKPKDTLMISRTPEVTCVVVDVSHEDPEVKFNWYVDGVEVHNAKTKPREEQYNSTYRVVSVLTVLHQDWLNGKEYKCKVSNKALPLPEEKTISKAKGQPREPQVYTLPPSREEMTKNQVSLTCLVKGFYPSDIAVEWESNGQPENNYKTTPPVLDSDGSFFLYSKLTVDKSRWQQGNVFSCSVLHEALHSHYTQKSLSLSPGK light: not shown | 13.8 | 0.24 | 0.3 | 0.07 | 0.42 | 0.28 | 0.49 | 0.89 | 0.42 | 1.01 | 2.78 | 1.35 | 0.47 | 6.56 | > 50 | > 50 | > 50 | > 50 | 14.3 | – | Neutralization IC50 [24]: 0.2 mg/L |
| 2.1.4-1 (antibody, human IgG1, kappa) heavy: QVHLSQSGAAVTKPGASVRVSCEASGYKISDHFIHWWRQAPGQGLQWVGWINPKTGQPNNPRQFQGRVSLTRQASWDFDTYSFYMDLKAVRSDDTAIYFCARQRSDFWDFDVWGSGTQVTVSSASTKGPSVFPLAPSSKSTSGGTAALGCLVKDYFPEPVTVSWNSGALTSGVHTFPAVLQSSGLYSLSSVVTVPSSSLGTQTYICNVNHKPSNTKVDKKVEPKSCDKTHTCPPCPAPELLAGPDVFLFPPKPKDTLMISRTPEVTCVVVDVSHEDPEVKFNWYVDGVEVHNAKTKPREEQYNSTYRVVSVLTVLHQDWLNGKEYKCKVSNKALPLPEEKTISKAKGQPREPQVYTLPPSREEMTKNQVSLTCLVKGFYPSDIAVEWESNGQPENNYKTTPPVLDSDGSFFLYSKLTVDKSRWQQGNVFSCSVLHEALHSHYTQKSLSLSPGK light: not shown | 6.78 | 0.21 | 0.33 | 0.05 | 0.46 | 0.23 | 0.55 | 0.59 | 0.38 | 0.91 | 2.16 | 1.19 | 0.36 | 4.97 | > 50 | > 50 | > 50 | > 50 | 7.27 | – | Neutralization IC50 [24]: 0.11 mg/L |
| Antibody A-1 (antibody, human IgG1, kappa) heavy: QVQLLQSGAAVTKPGASVRVSCEASGYNIRDYFIHWWRQAPGQGLQWVGWINPKTGQPNNPRQFQGRVSLTRHASWDFDTFSFYMDLKALRSDDTAVYFCARQRSDYWDFDVWGSGTQVTVSSASTKGPSVFPLAPSSKSTSGGTAALGCLVKDYFPEPVTVSWNSGALTSGVHTFPAVLQSSGLYSLSSVVTVPSSSLGTQTYICNVNHKPSNTKVDKKVEPKSCDKTHTCPPCPAPELLAGPDVFLFPPKPKDTLMISRTPEVTCVVVDVSHEDPEVKFNWYVDGVEVHNAKTKPREEQYNSTYRVVSVLTVLHQDWLNGKEYKCKVSNKALPLPEEKTISKAKGQPREPQVYTLPPSREEMTKNQVSLTCLVKGFYPSDIAVEWESNGQPENNYKTTPPVLDSDGSFFLYSKLTVDKSRWQQGNVFSCSVLHEALHSHYTQKSLSLSPGK light: not shown | 2.45 | 0.11 | 0.41 | 0.12 | 0.52 | 0.42 | 0.34 | 1.17 | 0.52 | 0.91 | 2.17 | 1.73 | 0.57 | 6.3 | 16.6 | > 50 | > 50 | > 50 | 2.01 | 3 mg/L and 2.9 mg/L | Neutralization IC50 [21]: 0.18 mg/L and 0.2 mg/L; Neutralization IC50 [22]: 0.13 mg/L; Neutralization IC50 [23]: 3.8 mg/L and 4.8 mg/L |
